Tests used:
[1] = tested on: recombinant NL-Rluc virus; assay: Inhibition of HIV replication (NL-Rluc luciferase reporter virus); settings: read-out: Activity (EC50, inhibition of HIV replication); NL-RLuc pseudotype virus; serum condition of the tabulated values not stated (10% FBS, 15 mg/ml human serum albumin/10% FBS or 40% human serum/5% FBS); at least 2 experiments
Description: Inhibition of HIV replication. A recombinant NL-Rluc virus was constructed in which a section of the nef gene from NL4-3 was replaced with the Renilla Luciferase gene. The NL-RLuc virus was prepared by co-transfection of two plasmids, pNLRLuc and pVSVenv. The pNLRLuc contains the NL-Rluc DNA cloned into pUC18 at the pvuII site, while the pVSVenv contains the gene for VSV G protein linked to an LTR promoter. Transfections were performed at a 1:3 ratio of pNLRLuc to pVSVenv on 293T cells using the LipofectAMINE PLUS kit from Invitrogen (Carlsbad, Calif.) according to manufactures instruction, and the pseudotype virus generated was titered in MT-2 cells.
Susceptibility of viruses to compounds was determined by incubation in the presence of serial dilutions of the compound. The 50% effective concentration (EC50) was calculated by using the exponential form of the median effect equation where (Fa)=1/[1+(ED50/drug conc.)^m] (Johnson V A, Byington R T. Infectivity Assy. In Techniques in HIV Research. ed. Aldovini A, Walker B D. 71-76. New York: Stockton Press. 1990). The anti-viral activity of compounds was evaluated under three serum conditions, 10% FBS, 15 mg/ml human serum albumin/10% FBS or 40% human serum/5% FBS, and the results from at least 2 experiments were used to calculate the EC50 values. […]

HIV-integrase = HIV-integrase (Human immunodeficiency virus type 1 group M subtype B, UniProt P12497); assay: HIV-Integrase Inhibition Activity (SPA bead strand transfer assay); settings: read-out: Activity (IC50 against HIV-integrase); recombinant integrase, biotin labeled substrate DNA on SPA beads, P33 labeled target DNA
Description: HIV-Integrase InhibitionActivity. To evaluate in-vitro activity against HIV-integrase, 5 pmole of biotin labeled substrate DNA was bound to 100 μg of Streptavidin coated PVT SPA beads (Amersham Pharmacia Biotech). Recombinant integrase (0.26 ng) was incubated with the beads for 90 min at 37° C. Unbound enzyme was removed by washing the complex followed by addition of inhibitors and 0.1 fmol of P33 labeled target DNA. The reaction was stopped by adding EDTA to a final concentration of 10 mM. Samples were counted in TopCountNXT (Packard) and the CPM was used as a measure of integration. The reaction condition was as described in A. Engelman and R. Craigie, J. Virol. 69, 5908-5911 (1995). The sequences of substrate and target DNA were described in Nucleic Acid Research 22, 1121-1122 (1994).
Activity equal to A refers to a compound having IC50=0.002 to 0.10 μM while B and C denote compounds having IC50=0.1 to 1.0 μM and IC50≧1.0 μM respectively.

| Structure (SMILES) | EC50 [1] [nM] | IC50 (HIV-integrase) [nM] |
| --- | --- | --- |
| CC(C)N1CCN(S(=O)(=O)c2cc(F)ccc2CNC(=O)c2nc3n(c(=O)c2O)CCOC32CCOCC2)CC1 | 3 to 100 | 2 to 100 |
| O=C(NCc1ccc(F)cc1S(=O)(=O)N1CCN(CC2CC2)CC1)c1nc2n(c(=O)c1O)CCOC21CCOCC1 | 3 to 100 | 2 to 100 |

From patent US7902182B2, “HIV integrase inhibitors” (priority 2005, dated 2011)
